From patent US10220083B2 (priority 2014, dated 2019)

Key:
[1] = system: human pneumococcal reference serum 007sp (pooled sera of humans immunized with Pneumovax); assay: Glycan microarray binding with human pneumococcal reference serum 007sp; conditions: for recognition by antiserum from human vaccinated with Pneumovax23 (007sp): anti-human IgM and IgG detection, FIGS. 4 (B) and 4 (C)
mAb 1F1 = assay: Glycan array analysis using mAb 1F1; assay type: binding, mouse; conditions: glycan microarray, FIG. 11 (A)
mAb 1H8 = assay: Glycan array analysis using mAb 1H8; assay type: binding, mouse; conditions: glycan microarray, FIG. 11 (A)
[2] = system: mAb 28H11 (protective murine IgM raised against native Sp8 polysaccharide); assay: Glycan microarray binding of mAb 28H11

Row | Compound | recognition by antiserum from human vaccinated with Pneumovax23 (007sp) [1] | recognition by mAb 1F1 (mAb 1F1) | recognition by mAb 1H8 (mAb 1H8) | interaction with the antiserum from human vaccinated with Pneumovax23 ([1]; FIG. 4) | interaction of mAb 28H11 with saccharide ([2]; glycan microarray, FIG. 12) | inhibition of mAb 28H11 binding by native S. pneumoniae type 8 CPSs ([2]; native CPS up to 10 μg/mL)
1 | NCCCCCO[C@H]1OC(CO)[C@@H](O[C@@H]2OC(CO)[C@@H](O[C@@H]3OC(C(=O)O)[C@@H](O[C@H]4OC(CO)[C@H](O)C(O)C4O)C(O)C3O)C(O)C2O)C(O)C1O (some centres unmarked) | recognized | – | – | – | – | –
2 | NCCCCCO[C@H]1OC(CO)[C@H](O[C@H]2OC(CO)[C@@H](O[C@@H]3OC(CO)[C@@H](O[C@@H]4OC(C(=O)O)[C@@H](O)C(O)C4O)C(O)C3O)C(O)C2O)C(O)C1O (some centres unmarked) | recognized | recognized with similar intensities | recognized with similar intensities | Robust interactions | robust interaction | ablation of binding
3 | NCCCCCO[C@@H]1OC(C(=O)O)[C@@H](O[C@H]2OC(CO)[C@H](O[C@H]3OC(CO)[C@@H](O[C@@H]4OC(CO)[C@@H](O)C(O)C4O)C(O)C3O)C(O)C2O)C(O)C1O (some centres unmarked) | recognized | – | – | – | – | –
